{"source": "patent US20220348635A1", "about": "“COMPOSITIONS AND METHODS FOR NEUROLOGICAL DISEASES” (Coda Biotherapeutics, Inc., priority 2019, published 2022)", "experiment_in_all_cases": "flow cytometry, labelled α-bungarotoxin on transfected HEK293T cells", "key": {"[1]": {"target": "T1, engineered receptor L131D, S172D in SEQ ID NO: 33 (human (chimera of human α7-nAChR ligand …))", "T1 chain": "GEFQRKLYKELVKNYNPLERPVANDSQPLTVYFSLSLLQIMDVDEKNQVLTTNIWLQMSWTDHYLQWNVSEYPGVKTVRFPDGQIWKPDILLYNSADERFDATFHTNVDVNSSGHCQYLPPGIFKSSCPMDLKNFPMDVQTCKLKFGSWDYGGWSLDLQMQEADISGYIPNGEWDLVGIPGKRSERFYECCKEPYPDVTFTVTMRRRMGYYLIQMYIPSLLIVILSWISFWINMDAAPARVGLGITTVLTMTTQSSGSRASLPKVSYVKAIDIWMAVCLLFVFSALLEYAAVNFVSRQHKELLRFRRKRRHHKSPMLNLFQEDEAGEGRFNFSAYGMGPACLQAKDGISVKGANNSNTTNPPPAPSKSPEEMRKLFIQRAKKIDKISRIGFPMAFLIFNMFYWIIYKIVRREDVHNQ"}, "[2]": {"target": "T2, engineered receptor L131S, S172D in SEQ ID NO: 33 (human (chimera of human α7-nAChR ligand …))", "T2 chain": "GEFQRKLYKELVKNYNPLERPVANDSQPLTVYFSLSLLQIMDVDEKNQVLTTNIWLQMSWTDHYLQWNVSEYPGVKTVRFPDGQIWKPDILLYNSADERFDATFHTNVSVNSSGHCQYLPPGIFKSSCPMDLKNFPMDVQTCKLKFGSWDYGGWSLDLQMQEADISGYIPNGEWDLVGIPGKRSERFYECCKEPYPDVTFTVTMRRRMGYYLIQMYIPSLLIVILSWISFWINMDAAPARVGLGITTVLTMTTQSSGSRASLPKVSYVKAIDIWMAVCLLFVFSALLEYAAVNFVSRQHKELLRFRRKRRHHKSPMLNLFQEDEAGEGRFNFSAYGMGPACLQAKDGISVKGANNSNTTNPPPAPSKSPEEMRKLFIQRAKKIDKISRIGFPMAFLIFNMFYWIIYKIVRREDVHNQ"}, "[3]": {"target": "T3, engineered receptor L131T, S172D in SEQ ID NO: 33 (human (chimera of human α7-nAChR ligand …))", "T3 chain": "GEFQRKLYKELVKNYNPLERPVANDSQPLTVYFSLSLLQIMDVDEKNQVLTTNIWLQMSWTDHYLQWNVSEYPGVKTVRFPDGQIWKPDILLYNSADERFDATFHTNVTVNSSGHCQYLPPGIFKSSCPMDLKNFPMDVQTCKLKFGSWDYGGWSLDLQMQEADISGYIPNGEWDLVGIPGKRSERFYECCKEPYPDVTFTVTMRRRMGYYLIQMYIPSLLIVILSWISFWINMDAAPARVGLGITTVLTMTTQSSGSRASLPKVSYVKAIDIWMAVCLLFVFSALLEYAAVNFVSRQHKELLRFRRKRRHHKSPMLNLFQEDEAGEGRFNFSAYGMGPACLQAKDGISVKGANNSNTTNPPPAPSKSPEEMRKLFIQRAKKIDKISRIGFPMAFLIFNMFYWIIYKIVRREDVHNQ"}, "[4]": {"target": "T4, engineered receptor Y115D, L131E in SEQ ID NO: 33 (human (chimera of human α7-nAChR ligand …))", "T4 chain": "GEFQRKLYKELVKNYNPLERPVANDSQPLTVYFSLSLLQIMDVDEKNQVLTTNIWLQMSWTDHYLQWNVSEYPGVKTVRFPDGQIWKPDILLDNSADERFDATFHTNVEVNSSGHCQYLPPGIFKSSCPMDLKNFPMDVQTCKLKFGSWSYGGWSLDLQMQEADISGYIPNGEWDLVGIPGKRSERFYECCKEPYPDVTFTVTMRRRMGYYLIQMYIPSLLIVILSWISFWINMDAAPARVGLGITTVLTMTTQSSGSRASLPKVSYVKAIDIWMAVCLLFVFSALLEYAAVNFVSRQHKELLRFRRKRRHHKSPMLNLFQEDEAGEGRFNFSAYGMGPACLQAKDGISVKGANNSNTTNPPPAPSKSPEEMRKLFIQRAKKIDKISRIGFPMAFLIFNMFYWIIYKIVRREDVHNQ"}, "[5]": {"target": "T5, engineered receptor Y115D, L131Q in SEQ ID NO: 33 (human (chimera of human α7-nAChR ligand …))", "T5 chain": "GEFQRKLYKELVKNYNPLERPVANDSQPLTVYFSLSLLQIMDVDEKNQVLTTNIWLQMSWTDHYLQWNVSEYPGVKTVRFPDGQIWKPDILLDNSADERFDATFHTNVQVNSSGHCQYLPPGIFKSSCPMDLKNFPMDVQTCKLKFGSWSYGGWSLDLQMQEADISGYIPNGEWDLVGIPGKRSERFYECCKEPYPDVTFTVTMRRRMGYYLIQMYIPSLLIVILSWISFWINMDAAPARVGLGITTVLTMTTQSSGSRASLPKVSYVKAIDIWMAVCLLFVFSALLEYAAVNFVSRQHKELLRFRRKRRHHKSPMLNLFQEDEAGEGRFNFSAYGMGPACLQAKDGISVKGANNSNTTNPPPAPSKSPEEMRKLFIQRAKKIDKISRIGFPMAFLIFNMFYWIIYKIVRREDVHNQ"}, "[6]": {"target": "T6, engineered receptor Y115D, S170T in SEQ ID NO: 33 (human (chimera of human α7-nAChR ligand …))", "T6 chain": "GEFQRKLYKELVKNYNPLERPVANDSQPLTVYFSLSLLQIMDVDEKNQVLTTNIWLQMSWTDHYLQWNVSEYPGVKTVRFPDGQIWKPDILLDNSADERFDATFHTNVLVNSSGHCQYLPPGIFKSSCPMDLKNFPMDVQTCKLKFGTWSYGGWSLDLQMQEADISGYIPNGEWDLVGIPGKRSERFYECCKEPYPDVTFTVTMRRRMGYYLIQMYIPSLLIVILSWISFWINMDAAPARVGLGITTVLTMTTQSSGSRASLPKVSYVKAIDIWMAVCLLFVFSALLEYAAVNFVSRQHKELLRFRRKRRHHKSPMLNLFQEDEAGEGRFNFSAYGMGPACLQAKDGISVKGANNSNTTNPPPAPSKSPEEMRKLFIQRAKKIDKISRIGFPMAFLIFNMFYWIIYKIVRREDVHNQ"}}}
{"binder": "α-bungarotoxin conjugated to Alexa Fluor 647 (ligand) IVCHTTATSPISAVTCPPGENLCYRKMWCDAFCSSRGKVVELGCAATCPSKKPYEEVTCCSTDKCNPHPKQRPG", "values": [{"measurement": "Normalized AB %", "setting": "[1]", "value": "45 % of α-bungarotoxin positive cells, normalized to SEQ ID NO: 33 control"}, {"measurement": "Normalized AB MFI", "setting": "[1]", "value": "0.88 ratio to SEQ ID NO: 33 control"}, {"measurement": "Normalized AB MFI", "setting": "[2]", "value": "0.83 ratio to SEQ ID NO: 33 control"}, {"measurement": "Normalized AB %", "setting": "[3]", "value": "32 % of α-bungarotoxin positive cells, normalized to SEQ ID NO: 33 control"}, {"measurement": "Normalized AB MFI", "setting": "[3]", "value": "0.75 ratio to SEQ ID NO: 33 control"}, {"measurement": "Normalized AB %", "setting": "[4]", "value": "73 % of α-bungarotoxin positive cells, normalized to SEQ ID NO: 33 control"}, {"measurement": "Normalized AB MFI", "setting": "[4]", "value": "0.9 ratio to SEQ ID NO: 33 control"}, {"measurement": "Normalized AB %", "setting": "[5]", "value": "35 % of α-bungarotoxin positive cells, normalized to SEQ ID NO: 33 control"}, {"measurement": "Normalized AB MFI", "setting": "[5]", "value": "0.72 ratio to SEQ ID NO: 33 control"}, {"measurement": "Normalized AB %", "setting": "[6]", "value": "17 % of α-bungarotoxin positive cells, normalized to SEQ ID NO: 33 control"}, {"measurement": "Normalized AB MFI", "setting": "[6]", "value": "0.64 ratio to SEQ ID NO: 33 control"}]}
